Results of unrelated studies side by side (data: NIAID ChemDB).

All rows: whole-cell or culture tests; organism: Cryptococcus neoformans; endpoint: MIC90

Neighbouring rows are from separate reports. An empty or dashed field is not shown. A number after MIC or MFC names an inhibition level or a share of isolates.

compound | strain | value
C[C@H]1[C@H](O)[C@@H](C)/C=C/C=C/C=C/C=C/C=C/C=C/C=C/[C@H](O[C@@H]2O[C@H](C)[C@@H](O)[C@H](N)[C@@H]2O)C[C@@H]2O[C@](O)(C[C@@H](O)C[C@@H](O)CC[C@H](O)[C@@H](O)C[C@@H](O)CC(=O)O[C@H]1C)C[C@H](O)[C@H]2C(=O)O | 37 strains | 0.5 µg/mL
CC(N1CCN(c2ccc(-n3cnn(Cc4ccc(C(F)(F)F)cc4)c3=O)cc2)CC1)C(O)(Cn1cncn1)c1ccc(F)cc1F | 8 strains | 0.19 µg/mL
CC(C)C(CCC(C)C1CC[C@@]2(C)C3=C(CCC12C)C1(C)CC[C@H](O)C(C)(C)C1CC3)NC1CCCCC1 | A.34144 | 12.5 µg/mL
C=C1CO[C@H]2[C@@H](C)OC(OC[C@@]34C[C@H]5[C@H](C)CC[C@@H]5[C@@]5(C=O)C[C@@H]3C=C(C(C)C)[C@@]45C(=O)O)C[C@@H]12 | 15 strains (serotype B) | 1 µg/mL
CC(N1CCN(c2ccc(-n3cnn(Cc4ccc(OC(F)(F)F)cc4)c3=O)cc2F)CC1)C(O)(Cn1cncn1)c1ccc(F)cc1F | 8 strains | 0.19 µg/mL
CC(C)C(N)CCC(C)C1CC[C@@]2(C)C3=C(CCC12C)C1(C)CC[C@H](O)C(C)(C)C1CC3 | A.34144 | 0.1 µg/mL
CC[C@@H]([C@H](C)O)n1ncn(-c2ccc(N3CCN(c4ccc(OC[C@@H]5CO[C@@](Cn6cncn6)(c6ccc(F)cc6F)C5)cc4)CC3)cc2)c1=O | 10 strains | 0.25 µg/mL
C[C@@H](SC1COC(/C=C/C=C/c2ccc(C#N)cc2F)OC1)[C@](O)(Cn1cncn1)c1ccc(F)cc1F | 22 strains | ≤0.008 µg/mL
COc1cc(O)c2c(c1)C(=O)c1c(cc3c(c1O)-c1c(cc(C)c(C(=O)NC(CO)C(=O)O)c1O)[C@H](OC1OC(C)C(O)C(OC4OCC(O)C(O)C4O)C1O)C3O)C2=O | 15 isolates | 2 µg/mL
CCC(C)n1ncn(-c2ccc(N3CCN(c4ccc(OC[C@H]5CO[C@](Cn6cncn6)(c6ccc(Cl)cc6Cl)O5)cc4)CC3)cc2)c1=O | 15 strains | 0.06 µg/mL
CCS(=O)(=O)C(F)(F)C(O)(Cn1cncn1)c1ccc(F)cc1F | 26 strains | 2 µg/mL
C[C@H]1[C@H](O)[C@@H](C)/C=C/C=C/C=C/C=C/C=C/C=C/C=C/[C@H](O[C@@H]2O[C@H](C)[C@@H](O)[C@H](N)[C@@H]2O)C[C@@H]2O[C@](O)(C[C@@H](O)C[C@@H](O)CC[C@H](O)[C@@H](O)C[C@@H](O)CC(=O)O[C@H]1C)C[C@H](O)[C@H]2C(=O)O | 19 strains | 0.5 µg/mL
COc1cc(O)c2c(c1)C(=O)c1c(cc3c(c1O)-c1c(cc(C)c(C(=O)NC(CO)C(=O)O)c1O)[C@H](OC1OC(C)C(O)C(OC4OCC(O)C(O)C4O)C1O)C3O)C2=O | 32 isolates | 4 µg/mL
C[C@H]1[C@H](O)[C@@H](C)/C=C/C=C/C=C/C=C/C=C/C=C/C=C/[C@H](O[C@@H]2O[C@H](C)[C@@H](O)[C@H](N)[C@@H]2O)C[C@@H]2O[C@](O)(C[C@@H](O)C[C@@H](O)CC[C@H](O)[C@@H](O)C[C@@H](O)CC(=O)O[C@H]1C)C[C@H](O)[C@H]2C(=O)O | 5 isolates | 0.5 µg/mL
C[C@H]1[C@H](O)[C@@H](C)/C=C/C=C/C=C/C=C/C=C/C=C/C=C/[C@H](O[C@@H]2O[C@H](C)[C@@H](O)[C@H](N)[C@@H]2O)C[C@@H]2O[C@](O)(C[C@@H](O)C[C@@H](O)CC[C@H](O)[C@@H](O)C[C@@H](O)CC(=O)O[C@H]1C)C[C@H](O)[C@H]2C(=O)O | 12 strains | 0.125 µg/mL
CC(C)C(N)CCC(C)C1CCC2C3CC=C4C[C@@H](O)CCC4(C)C3CCC12C | B42419 | 0.39 µg/mL
CCC(C)n1ncn(-c2ccc(N3CCN(c4ccc(OC[C@H]5CO[C@](Cn6cncn6)(c6ccc(Cl)cc6Cl)O5)cc4)CC3)cc2)c1=O | 42 isolates (HIV+) | 0.25 µg/mL
Cc1cccc(N(C)C(=S)Oc2ccc3c(c2)C2CCC3C2)c1 | 33 strains | 1.25 µg/mL
C=C1CO[C@H]2[C@@H](C)OC(OC[C@@]34C[C@H]5[C@H](C)CC[C@@H]5[C@@]5(C=O)C[C@@H]3C=C(C(C)C)[C@@]45C(=O)O)C[C@@H]12 | 20 strains | 0.25 µg/mL
CCCCCOc1ccc(-c2ccc(-c3ccc(C(=O)N[C@H]4C[C@@H](O)[C@@H](O)NC(=O)[C@@H]5[C@@H](O)[C@@H](C)CN5C(=O)[C@H]([C@H](C)O)NC(=O)[C@H]([C@H](O)[C@@H](O)c5ccc(O)cc5)NC(=O)[C@@H]5C[C@@H](O)CN5C(=O)[C@H]([C@H](C)O)NC4=O)cc3)cc2)cc1 | 15 isolates | >10.24 µg/mL
C[C@@H](SC1COC(/C=C/C=C/c2ccc(C#N)cc2F)OC1)[C@](O)(Cn1cncn1)c1ccc(F)cc1F | 25 isolates | 0.004 µg/mL
C[C@H]1[C@H](O)[C@@H](C)/C=C/C=C/C=C/C=C/C=C/C=C/C=C/[C@H](O[C@@H]2O[C@H](C)[C@@H](O)[C@H](N)[C@@H]2O)C[C@@H]2O[C@](O)(C[C@@H](O)C[C@@H](O)CC[C@H](O)[C@@H](O)C[C@@H](O)CC(=O)O[C@H]1C)C[C@H](O)[C@H]2C(=O)O | 12 strains | 1 µg/mL
CCC(C)n1ncn(-c2ccc(N3CCN(c4ccc(OC[C@H]5CO[C@](Cn6cncn6)(c6ccc(Cl)cc6Cl)O5)cc4)CC3)cc2)c1=O |  | 0.11 µg/mL
CNC(CCC(C)C1CC[C@@]2(C)C3=C(CCC12C)C1(C)CC[C@H](OC(C)=O)C(C)(C)C1CC3)C(C)C | A.34144 | 100 µg/mL
CCC(C)CC(C)CCCCCCCCC(=O)N[C@H]1C[C@@H](O)[C@H](NCCN)NC(=O)[C@@H]2[C@@H](O)CCN2C(=O)[C@H]([C@H](O)CCN)NC(=O)[C@H]([C@H](O)[C@@H](O)c2ccc(O)cc2)NC(=O)[C@@H]2C[C@@H](O)CN2C(=O)[C@H]([C@@H](C)O)NC1=O | 15 strains | >8 µg/mL
Nc1[nH]c(=O)ncc1F | 12 strains | 16 µg/mL
CC(C)C(CCC(C)C1CCC2C3CC=C4C[C@@H](O)CCC4(C)C3CCC12C)NS(=O)(=O)O | A.34144 | 0.39 µg/mL
C[C@@H](c1nc(-c2ccc(C#N)cc2)cs1)[C@](O)(Cn1cnnc1)c1ccc(F)cc1F | 32 isolates | 0.016 µg/mL

Repeating the final 2 entries:

compound | strain | value
CC(C)C(CCC(C)C1CCC2C3CC=C4C[C@@H](O)CCC4(C)C3CCC12C)NS(=O)(=O)O | A.34144 | 0.39 µg/mL
C[C@@H](c1nc(-c2ccc(C#N)cc2)cs1)[C@](O)(Cn1cnnc1)c1ccc(F)cc1F | 32 isolates | 0.016 µg/mL